This passage reports TLR5 specific-activity against STF2.OVA (fold (against stf2.ova)), TLR-5 EC50 (batch 044) and TLR-5 EC50 (batch 045) results from patent publication US20130224798.

Where only a bound is given, the exact number is not on record here.

The experiment has as its target Toll-like Receptor 5 (TLR5) constitutively expressed by HEK293 cells, not stated, O60602 21-858. The experiment can be described thus: cell-based or functional assay.

Consider STF2Δ.EIII+, for which the TLR5 specific-activity against STF2.OVA (fold (against stf2.ova)) is above 10, the TLR-5 EC50 (batch 044) was found to be 1.13 ng/mL and the TLR-5 EC50 (batch 045) was 4.34 ng/mL.
